PubChem BioAssay AID1259414 – Drosophila RNAi Screening Center | 2018
The deposit covers about 24,000 reagents; this is a random part of those that have a named target and a result. Of all reagents, about 1,210 (5%) were called active. 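Inactive calls also include excluded dsRNAs with several or no targets, genes unexpressed in JW18, and well A1, regardless of score.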 No sequences are given here.

Assay: 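Fly genes that alter Wolbachia amount inside host cells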 (primary screen)
Cell system: Drosophila JW18 cells infected with Wolbachia
Reagents: long dsRNA against Drosophila genes, 0.25 µg dsRNA per well of a 384-well plate
Time to read-out: 5 days
Treatment: cells persistently infected with Wolbachia before knock-down; no added drug
Read-out: 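Imaged fluorescence in situ signal for Wolbachia 23S rRNA per DAPI-counted host cell, given as a robust z-score within each plate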
Direction: Wolbachia per cell robust z: higher = more Wolbachia per host cell than the plate typical
Rule for the call: 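Hit when robust z is 1.5 or more, or -1.5 or less, in at least two of three replicates; excludes dsRNAs with several or no targets, genes not expressed in JW18 and well A1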

| gene | amplicon | Wolbachia per cell robust z, rep 1 | Wolbachia per cell robust z, rep 2 | Wolbachia per cell robust z, rep 3 | Outcome |
| --- | --- | --- | --- | --- | --- |
| CG10214 | DRSC14213 | -6.65 | 0.395 | -0.301 | inactive |
| Slimp (Seryl-tRNA synthetase-like insect mitochondrial protein) | DRSC13656 | 0.554 | 0.337 | 0.521 | inactive |
| CG15170 | DRSC02471 | -0.248 | -0.355 | -0.452 | inactive |
| Teh1 (tipE homolog 1) | DRSC14544 | 0.387 | -0.551 | -6.48 | inactive |
| CG34166 | DRSC02482 | -0.0676 | -0.658 | -0.879 | inactive |
| CG34166 | DRSC27934 | -0.146 | 1.54 | 0.68 | inactive |
| CG34166 | DRSC39101 | 0.0657 | -0.0666 | 0.529 | inactive |
| pwn (pawn) | DRSC06035 | 0.891 | 0.582 | 1.45 | inactive |
| pwn (pawn) | DRSC25224 | -0.356 | 0.703 | -0.645 | inactive |
| CG6843 | DRSC10725 | -0.876 | -3.97 | 0.0225 | inactive |
| CG6843 | DRSC29943 | -1.84 | 0.518 | -0.4 | inactive |
| CG15601 | DRSC19670 | -0.284 | -2.01 | 0.614 | inactive |
| Rpt3R (Regulatory particle triple-A ATPase 3-related) | DRSC16501 | 0.706 | -2.57 | 1.01 | inactive |
| Rpt3R (Regulatory particle triple-A ATPase 3-related) | DRSC25067 | 0.993 | 1.51 | 1.29 | inactive |
| cv-d (crossveinless d) | DRSC16522 | 0.235 | -0.298 | 0.125 | inactive |
| cv-d (crossveinless d) | DRSC16524 | 0.17 | 1.67 | 1.14 | inactive |
| cv-d (crossveinless d) | DRSC16526 | -4.95 | -1.54 | -1.49 | active |
| bmm (brummer) | DRSC10502 | -0.391 | -0.109 | -0.1 | inactive |
| CG3191 | DRSC18530 | 0.782 | 0.081 | 0.793 | inactive |
| CG3191 | DRSC29390 | 0.521 | -0.977 | -0.985 | inactive |
| CG31676 | DRSC02387 | -2.78 | 0.147 | -0.134 | inactive |
| Oseg2 (Outer segment 2) | DRSC08343 | 0.543 | 0.785 | 0.35 | inactive |
| Listericin | DRSC07334 | 0.393 | -4.31 | 0.315 | inactive |
| Listericin | DRSC24374 | 0.833 | 0.889 | 1.78 | inactive |
| RN-tre (Related to the N terminus of tre oncogene) | DRSC07521 | -0.445 | -0.729 | 0.19 | inactive |
| RN-tre (Related to the N terminus of tre oncogene) | DRSC28214 | 0.363 | -0.249 | -0.348 | inactive |
| CheB38b (Chemosensory protein B 38b) | DRSC22874 | -0.0246 | 0.384 | -0.736 | inactive |

Entries above called active (1):
| gene | amplicon | Wolbachia per cell robust z, rep 1 | Wolbachia per cell robust z, rep 2 | Wolbachia per cell robust z, rep 3 | Outcome |
| --- | --- | --- | --- | --- | --- |
| cv-d (crossveinless d) | DRSC16526 | -4.95 | -1.54 | -1.49 | active |

Continued.
| gene | amplicon | Wolbachia per cell robust z, rep 1 | Wolbachia per cell robust z, rep 2 | Wolbachia per cell robust z, rep 3 | Outcome |
| --- | --- | --- | --- | --- | --- |
| CG32814 | DRSC17670 | 0.468 | 0.0295 | -0.284 | inactive |
| CG32814 | DRSC26042 | 0.00119 | 0.0678 | 0.301 | inactive |
| fzr (fizzy-related) | DRSC18781 | 0.838 | 1.23 | 0.841 | inactive |
| fzr (fizzy-related) | DRSC28236 | 1.16 | 1.18 | 0.581 | inactive |
| CG33514 | DRSC08471 | -4.01 | -0.4 | -1.52 | inactive |
| CG33514 | DRSC08472 | -1.56 | -2.11 | -2.27 | inactive |
| CG33514 | DRSC21670 | 0.173 | 0.105 | -0.914 | inactive |
| CG7920 | DRSC16346 | -0.636 | -0.0561 | -0.526 | inactive |
| CG7920 | DRSC21594 | -0.288 | -1.13 | 0.206 | inactive |
| HDAC6 (Histone deacetylase 6) | DRSC20252 | -0.683 | -1.44 | -0.782 | inactive |
| HDAC6 (Histone deacetylase 6) | DRSC29348 | 0.172 | -3.65 | 0.788 | inactive |
| COX6B (Cytochrome c oxidase subunit 6B) | DRSC19590 | 0.317 | -0.136 | 1.48 | inactive |
| COX6B (Cytochrome c oxidase subunit 6B) | DRSC27409 | 0.87 | 0.226 | 0.984 | inactive |
| COX4 (Cytochrome c oxidase subunit 4) | DRSC02091 | -0.149 | 1.61 | 1.21 | inactive |
| COX4 (Cytochrome c oxidase subunit 4) | DRSC23915 | 0.432 | 1.1 | 1.01 | inactive |
| Abd-B (Abdominal B) | DRSC14098 | 0.182 | -1.73 | -5.3 | inactive |
| Abd-B (Abdominal B) | DRSC14337 | 1.27 | -5.04 | 0.403 | inactive |
| Abd-B (Abdominal B) | DRSC28796 | -0.298 | 0.0502 | 0.838 | inactive |
| Pgd (Phosphogluconate dehydrogenase) | DRSC18697 | 0.129 | -6.41 | 0.778 | inactive |
| Pgd (Phosphogluconate dehydrogenase) | DRSC39148 | -0.966 | 0.77 | 1.29 | inactive |
